In test [1] the target is Glutamate receptor ionotropic, AMPA (Rattus norvegicus) (UniProt P19491+P19492+P19493+P19490). Nature of the test: Displacement of [3H]AMPA from rat brain AMPA receptor at 10 uM after 60 mins by scintillation counting method relative to control.
The target in test [2] is D(4) dopamine receptor (Homo sapiens) (UniProt P21917). In words: Displacement of [3H]-methylspiperone from dopamine D4 receptor (unknown origin) at 10 uM relative to control.
Test [3] has as its target Neuronal acetylcholine receptor; alpha4/beta2 (Homo sapiens) (UniProt P17787+P43681). Nature of the test: Displacement of [3H]cytisine from recombinant human alpha4beta2 nAChR at 10 uM after 120 mins by scintillation counting method relative to control. In general terms: Displacement assays read how much labelled ligand stays bound in the presence of the test substance.

Chains of the proteins cited; added tags and fusions are not shown. Lines headed by an entry give the natural chain unless they say otherwise; changes in a name come on top.
UniProt P19491: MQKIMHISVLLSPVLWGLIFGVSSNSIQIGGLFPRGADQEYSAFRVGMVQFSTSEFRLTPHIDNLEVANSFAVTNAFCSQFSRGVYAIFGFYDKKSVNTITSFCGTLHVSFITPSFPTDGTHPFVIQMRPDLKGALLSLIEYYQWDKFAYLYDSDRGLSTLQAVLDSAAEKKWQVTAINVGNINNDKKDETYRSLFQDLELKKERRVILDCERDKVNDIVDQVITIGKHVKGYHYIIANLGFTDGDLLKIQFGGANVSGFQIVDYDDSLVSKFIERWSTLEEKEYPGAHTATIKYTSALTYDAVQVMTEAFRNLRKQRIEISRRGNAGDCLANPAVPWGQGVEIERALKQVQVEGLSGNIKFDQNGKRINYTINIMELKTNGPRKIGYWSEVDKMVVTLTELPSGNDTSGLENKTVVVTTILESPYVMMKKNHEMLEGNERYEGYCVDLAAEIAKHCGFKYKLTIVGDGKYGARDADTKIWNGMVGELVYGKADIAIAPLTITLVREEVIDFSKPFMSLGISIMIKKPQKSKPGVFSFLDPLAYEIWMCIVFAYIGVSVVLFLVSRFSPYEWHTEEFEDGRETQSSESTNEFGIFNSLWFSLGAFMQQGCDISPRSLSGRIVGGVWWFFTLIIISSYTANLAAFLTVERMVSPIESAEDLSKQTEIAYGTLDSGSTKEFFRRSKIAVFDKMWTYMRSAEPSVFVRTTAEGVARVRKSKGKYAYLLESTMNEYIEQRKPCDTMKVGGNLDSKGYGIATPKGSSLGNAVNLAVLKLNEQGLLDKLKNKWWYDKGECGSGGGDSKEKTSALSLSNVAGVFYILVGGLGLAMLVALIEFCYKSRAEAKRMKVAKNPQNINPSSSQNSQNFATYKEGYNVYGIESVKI
UniProt P19492: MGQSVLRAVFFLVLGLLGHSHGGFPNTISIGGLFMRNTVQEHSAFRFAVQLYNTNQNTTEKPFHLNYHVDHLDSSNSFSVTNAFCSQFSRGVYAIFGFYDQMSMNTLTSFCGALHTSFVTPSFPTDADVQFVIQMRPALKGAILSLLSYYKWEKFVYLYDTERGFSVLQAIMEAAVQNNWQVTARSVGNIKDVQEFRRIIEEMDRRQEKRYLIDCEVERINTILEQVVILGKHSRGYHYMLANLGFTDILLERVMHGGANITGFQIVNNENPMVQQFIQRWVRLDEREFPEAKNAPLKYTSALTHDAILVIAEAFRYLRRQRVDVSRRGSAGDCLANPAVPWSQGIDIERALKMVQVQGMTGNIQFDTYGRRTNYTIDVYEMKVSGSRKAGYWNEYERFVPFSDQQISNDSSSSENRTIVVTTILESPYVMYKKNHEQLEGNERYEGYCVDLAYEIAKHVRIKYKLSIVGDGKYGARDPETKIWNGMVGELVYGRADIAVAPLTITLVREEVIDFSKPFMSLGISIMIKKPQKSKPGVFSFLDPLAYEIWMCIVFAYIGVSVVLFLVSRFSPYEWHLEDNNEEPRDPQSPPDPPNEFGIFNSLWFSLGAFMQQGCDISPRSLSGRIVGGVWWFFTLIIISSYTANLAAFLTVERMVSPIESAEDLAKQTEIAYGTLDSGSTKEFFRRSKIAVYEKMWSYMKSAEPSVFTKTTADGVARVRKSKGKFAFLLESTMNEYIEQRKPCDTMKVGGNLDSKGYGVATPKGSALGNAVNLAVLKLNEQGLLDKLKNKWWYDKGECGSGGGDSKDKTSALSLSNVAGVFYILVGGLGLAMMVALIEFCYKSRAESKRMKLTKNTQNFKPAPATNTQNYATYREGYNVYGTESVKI
UniProt P19493: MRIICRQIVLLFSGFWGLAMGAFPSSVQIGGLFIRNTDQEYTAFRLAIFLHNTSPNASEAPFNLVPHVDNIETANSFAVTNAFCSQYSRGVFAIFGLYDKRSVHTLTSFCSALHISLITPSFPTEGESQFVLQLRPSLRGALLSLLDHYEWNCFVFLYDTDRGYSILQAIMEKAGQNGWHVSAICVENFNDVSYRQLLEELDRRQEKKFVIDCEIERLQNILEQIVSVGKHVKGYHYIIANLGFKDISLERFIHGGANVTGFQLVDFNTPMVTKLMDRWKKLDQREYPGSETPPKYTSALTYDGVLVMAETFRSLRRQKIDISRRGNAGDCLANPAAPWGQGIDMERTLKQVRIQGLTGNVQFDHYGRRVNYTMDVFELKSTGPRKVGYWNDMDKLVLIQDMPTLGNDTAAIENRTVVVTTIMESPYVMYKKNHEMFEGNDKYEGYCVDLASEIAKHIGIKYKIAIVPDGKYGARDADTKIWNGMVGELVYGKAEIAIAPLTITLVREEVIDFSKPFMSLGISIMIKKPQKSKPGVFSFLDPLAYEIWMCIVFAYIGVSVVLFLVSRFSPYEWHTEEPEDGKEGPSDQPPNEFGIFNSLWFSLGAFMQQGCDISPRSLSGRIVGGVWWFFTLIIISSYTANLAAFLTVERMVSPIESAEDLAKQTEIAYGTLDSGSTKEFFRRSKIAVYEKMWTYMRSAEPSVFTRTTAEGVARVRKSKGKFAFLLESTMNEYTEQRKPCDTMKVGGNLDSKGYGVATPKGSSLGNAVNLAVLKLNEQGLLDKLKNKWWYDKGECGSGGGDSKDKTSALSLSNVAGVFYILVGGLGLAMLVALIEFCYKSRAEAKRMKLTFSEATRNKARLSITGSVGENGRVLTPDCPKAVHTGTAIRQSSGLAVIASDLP
UniProt P19490: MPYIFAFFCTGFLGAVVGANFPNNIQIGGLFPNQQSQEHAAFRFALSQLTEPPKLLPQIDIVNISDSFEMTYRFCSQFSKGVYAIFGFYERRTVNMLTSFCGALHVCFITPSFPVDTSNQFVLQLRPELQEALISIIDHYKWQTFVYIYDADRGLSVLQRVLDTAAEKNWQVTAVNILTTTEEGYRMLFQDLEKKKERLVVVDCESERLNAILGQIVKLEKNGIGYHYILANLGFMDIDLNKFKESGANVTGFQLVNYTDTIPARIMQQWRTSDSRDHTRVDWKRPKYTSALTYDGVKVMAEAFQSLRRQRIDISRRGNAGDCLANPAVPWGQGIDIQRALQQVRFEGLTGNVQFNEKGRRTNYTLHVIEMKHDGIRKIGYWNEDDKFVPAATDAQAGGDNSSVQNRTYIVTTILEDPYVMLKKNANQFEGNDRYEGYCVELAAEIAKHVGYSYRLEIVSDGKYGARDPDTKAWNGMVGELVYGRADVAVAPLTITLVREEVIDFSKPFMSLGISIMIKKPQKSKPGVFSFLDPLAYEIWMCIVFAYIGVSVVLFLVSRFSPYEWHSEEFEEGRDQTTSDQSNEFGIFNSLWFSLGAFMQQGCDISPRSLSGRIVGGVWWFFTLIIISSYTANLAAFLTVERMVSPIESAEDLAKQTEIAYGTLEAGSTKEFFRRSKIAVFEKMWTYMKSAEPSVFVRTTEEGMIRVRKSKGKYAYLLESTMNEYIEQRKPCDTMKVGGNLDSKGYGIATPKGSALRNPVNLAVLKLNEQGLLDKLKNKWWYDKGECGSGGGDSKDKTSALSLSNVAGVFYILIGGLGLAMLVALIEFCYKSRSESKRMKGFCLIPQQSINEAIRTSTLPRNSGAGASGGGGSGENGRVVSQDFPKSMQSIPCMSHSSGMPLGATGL
UniProt P21917, whole entry, looked up: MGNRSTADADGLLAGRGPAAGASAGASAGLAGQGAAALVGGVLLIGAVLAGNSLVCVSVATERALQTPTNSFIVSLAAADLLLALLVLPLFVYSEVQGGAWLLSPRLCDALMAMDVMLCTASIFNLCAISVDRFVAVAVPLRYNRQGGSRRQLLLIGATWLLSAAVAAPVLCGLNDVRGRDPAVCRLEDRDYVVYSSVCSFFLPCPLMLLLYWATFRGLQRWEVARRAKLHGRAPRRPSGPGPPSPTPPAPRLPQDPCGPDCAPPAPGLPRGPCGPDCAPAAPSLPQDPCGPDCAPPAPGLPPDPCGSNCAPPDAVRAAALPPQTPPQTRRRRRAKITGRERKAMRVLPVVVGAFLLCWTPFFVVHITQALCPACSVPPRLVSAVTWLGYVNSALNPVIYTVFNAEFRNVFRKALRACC
UniProt P17787, whole entry, looked up: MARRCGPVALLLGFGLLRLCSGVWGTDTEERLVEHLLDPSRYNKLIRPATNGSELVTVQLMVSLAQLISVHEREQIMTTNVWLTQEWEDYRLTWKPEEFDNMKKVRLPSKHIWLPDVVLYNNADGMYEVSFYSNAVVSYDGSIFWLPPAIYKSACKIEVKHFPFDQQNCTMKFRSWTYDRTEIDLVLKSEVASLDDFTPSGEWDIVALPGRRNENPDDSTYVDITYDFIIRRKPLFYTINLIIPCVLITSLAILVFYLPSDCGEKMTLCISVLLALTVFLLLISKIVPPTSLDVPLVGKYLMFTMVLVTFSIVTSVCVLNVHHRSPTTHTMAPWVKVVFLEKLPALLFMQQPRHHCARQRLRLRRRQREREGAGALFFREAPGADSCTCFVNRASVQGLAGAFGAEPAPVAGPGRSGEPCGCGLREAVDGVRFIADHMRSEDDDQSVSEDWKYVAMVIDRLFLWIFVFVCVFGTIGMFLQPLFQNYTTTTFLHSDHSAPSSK
UniProt P43681: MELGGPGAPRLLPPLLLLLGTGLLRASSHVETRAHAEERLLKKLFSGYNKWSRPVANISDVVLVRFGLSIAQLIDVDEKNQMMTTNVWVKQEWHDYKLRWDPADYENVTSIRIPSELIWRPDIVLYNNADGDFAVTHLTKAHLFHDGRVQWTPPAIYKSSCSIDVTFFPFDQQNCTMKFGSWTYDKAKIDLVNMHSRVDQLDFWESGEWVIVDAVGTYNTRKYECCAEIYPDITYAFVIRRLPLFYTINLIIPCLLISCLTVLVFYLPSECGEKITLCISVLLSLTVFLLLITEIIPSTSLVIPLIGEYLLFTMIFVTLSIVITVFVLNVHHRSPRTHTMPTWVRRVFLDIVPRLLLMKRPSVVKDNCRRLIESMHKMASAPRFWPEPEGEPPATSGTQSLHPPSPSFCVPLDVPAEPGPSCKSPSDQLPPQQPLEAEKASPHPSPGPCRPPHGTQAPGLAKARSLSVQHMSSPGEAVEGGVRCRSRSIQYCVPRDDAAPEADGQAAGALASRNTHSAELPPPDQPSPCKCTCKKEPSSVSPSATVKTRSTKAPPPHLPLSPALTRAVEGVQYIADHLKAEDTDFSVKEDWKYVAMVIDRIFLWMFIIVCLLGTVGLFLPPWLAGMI

In the case of `C[C@H](O)[C@H]1NC(=O)[C@@H]2NC(=O)[C@@H](NC(=O)CN)CSSC[C@H](NC(=O)[C@H](CCCNC(=N)N)NC(=O)[C@@H]3CCCN3C(=O)[C@H](CC(O)O)NC1=O)C(=O)N[C@@H](CCCNC(=N)N)C(=O)N[C@@H](Cc1ccc(O)c(I)c1)C(=O)N[C@@H](CCC(N)=O)C(=O)N[C@H](C(=O)N[C@H](CC(=O)N[C@@H](CCCNC(=N)N)C(=O)O)Cc1ccc(O)cc1)CSCS2`, the Activity in test [1] was 0.8%; in test [2], 17%; in test [3], -4.7%.
